Results of unrelated studies side by side (data: NIAID ChemDB).

Common to all: toxicity to cultured cells; cell line: TZM-bl; method: MTT; endpoint: CC50

CCn: concentration that lowers growth or viability of the cells by n%. Lines come from different laboratories, so protocols vary.

SMILES,value
O=C(Cn1ccc(=O)[nH]c1=O)Nc1ccc(Br)cn1,215 µM
COc1cc(/C=C/c2cc(Cl)c3cc(Cl)ccc3n2)cc(OC)c1OC,36.64 µM
CSc1nc(Cl)cc(N2C(=O)CSC2c2c(F)cccc2Cl)n1,27 µg/mL
Oc1cccc2ccc(/C=N/Nc3cccc(C(F)(F)F)c3)nc12,30.67 µM
O=C(CCC(=O)Nc1ccc([N+](=O)[O-])cn1)Nc1ccc([N+](=O)[O-])cn1,442.5 µM
Cc1nc(N2C(=O)CSC2c2c(Cl)cncc2Cl)ccc1Br,66.7 µg/mL
COc1ccccc1-c1nnc(-c2ccc3cccc(OC)c3n2)o1,413 µM
Clc1ccc2nc(/C=C/c3ccc(N4CCCC4)cc3)cc(Cl)c2c1,51.45 µM
Cc1cc(N2C(=O)CSC2c2c(Cl)cccc2Cl)no1,40.5 µg/mL
O=C(CCC(=O)n1cnc2ccccc21)n1cnc2ccccc21,202.8 µM
COc1cccc2ccc(-c3nnc(-c4ccc(C)cc4)o3)nc12,75.22 µM
Oc1cccc2ccc(/C=N/Nc3ccc(F)cc3F)nc12,53.68 µM
COc1ccc(N(C)C(=O)C(Cc2cc(F)cc(F)c2)NC(=O)c2cn(C3CC(n4cc(C)c(=O)[nH]c4=O)OC3CO)nn2)cc1,>15.63 µM
Brc1cccc(N=Cc2cc3ccccc3nc2Nc2cccc(Br)c2)c1,103.1 µM
Oc1cccc2ccc(/C=N/Nc3ccc(Cl)cc3)nc12,160 µM
Cc1cc(C)nc(N2C(=O)CSC2c2c(Br)cncc2Br)c1,49.8 µg/mL
COc1cccc2ccc(-c3nnc(-c4cccc(F)c4)o3)nc12,63.71 µM
Clc1cc(/C=C/c2ccc(-c3cncnc3)cc2)nc2ccccc12,73.59 µM
CC(C)(C)c1cc(N2C(=O)CSC2c2c(Cl)cccc2Cl)no1,48.5 µg/mL
Clc1ccc2nc(/C=C/c3ccccc3)cc(Cl)c2c1,7.66 µM
Cc1ccc(N/N=C/c2ccc3cccc(O)c3n2)cc1,70.14 µM
COC(=O)CCCn1cc(-c2cccc(C(=O)N[C@@H](Cc3ccccc3)C(=O)N(C)c3ccc(OC)cc3)c2)nn1,>35.99 µM
COc1cccc2ccc(-c3nnc(-c4cccc(C)c4)o3)nc12,37.81 µM
Cc1cc(Cl)c2ccccc2n1,134 µM
O=C(Cn1cnc2c([N+](=O)[O-])cccc21)Nc1ccccn1,18.14 µM
Fc1ccc(/C=C/c2cc(Cl)c3ccccc3n2)cc1,73.13 µM
COc1cc(-c2nnc(-c3ccc4cccc(OC)c4n3)o2)cc(OC)c1OC,65.58 µM
Cc1cc(Cl)c2cc(Cl)ccc2n1,75.69 µM
COc1ccc(NC(=O)/C=C/c2ccc3cccc(OC)c3n2)cc1,11.48 µM
Clc1cc(/C=C/c2ccccc2)nc2ccccc12,53.43 µM
Cc1nc(N2C(=O)CSC2c2c(Br)cncc2Br)ccc1Br,26.9 µg/mL